Reference: PubChem BioAssay AID624099 (ICCB-Longwood, 2012)
The deposit covers about 21,000 reagents; this is an unselected part. Of all reagents, 497 (2.4%) got an active call. 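Higher z means weaker E2 silencing; only reporter increases were scored, and knock-downs that hurt cell survival may mask genuine repressor factors.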 Entries without a mark were called inactive. No sequences are given here.

Aim: 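Knock-downs relieving repression by E2 of an HPV18 LCR luciferase reporter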 (primary screen)
Cells: human C33A cervical carcinoma cells (HPV-negative) stably expressing BPV1 E2 and an HPV18 LCR luciferase reporter
Reagents: siRNA pool against human genes, 40 nM
Duration: 72 h
Measurement: 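Per-well luciferase luminescence, z-scored on each plate against the plate mean and SD with control wells left out, then averaged across three replicate plates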
Direction: mean z-score and z-score: higher = stronger reporter signal, weaker E2 silencing
Hit rule: 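Mean z ≥ 2 together with z ≥ 2 in two or more of the three replicates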

ZDHHC8BP | mean z-score = 2.2 (active); z-score, replicate A = 2.62; z-score, replicate B = 2.42; z-score, replicate C = 1.56
RAB5C | mean z-score = -0.17; z-score, replicate A = -0.01; z-score, replicate B = -0.34; z-score, replicate C = -0.16
CXCL16 | mean z-score = -0.16; z-score, replicate A = -0.13; z-score, replicate B = 0.06; z-score, replicate C = -0.41
SPAST | mean z-score = 0.81; z-score, replicate A = 0.98; z-score, replicate B = 0.45; z-score, replicate C = 1.01
NXPH3 | mean z-score = -0.54; z-score, replicate A = -0.7; z-score, replicate B = -0.55; z-score, replicate C = -0.38
CFAP43 | mean z-score = -0.54; z-score, replicate A = -0.49; z-score, replicate B = -0.93; z-score, replicate C = -0.19
ATF7IP | mean z-score = -0.21; z-score, replicate A = 0.1; z-score, replicate B = -0.5; z-score, replicate C = -0.22
B3GALT2 | mean z-score = -1.58; z-score, replicate A = -1.58; z-score, replicate B = -1.7; z-score, replicate C = -1.46
AGO2 | mean z-score = 1.07; z-score, replicate A = 1.22; z-score, replicate B = 1.33; z-score, replicate C = 0.65
SAMD14 | mean z-score = -0.81; z-score, replicate A = -1.09; z-score, replicate B = -0.53; z-score, replicate C = -0.82
DDX42 | mean z-score = -0.02; z-score, replicate A = -0.35; z-score, replicate B = 0.12; z-score, replicate C = 0.17
NXNL2 | mean z-score = 2.01 (active); z-score, replicate A = 2.45; z-score, replicate B = 2.09; z-score, replicate C = 1.49
SERPINI1 | mean z-score = 0.61; z-score, replicate A = 0.64; z-score, replicate B = 0.4; z-score, replicate C = 0.8
RUFY4 | mean z-score = -0.61; z-score, replicate A = -1.07; z-score, replicate B = -0.68; z-score, replicate C = -0.09

Continued (3 carried over from the part before).
NXNL2 | mean z-score = 2.01 (active); z-score, replicate A = 2.45; z-score, replicate B = 2.09; z-score, replicate C = 1.49
SERPINI1 | mean z-score = 0.61; z-score, replicate A = 0.64; z-score, replicate B = 0.4; z-score, replicate C = 0.8
RUFY4 | mean z-score = -0.61; z-score, replicate A = -1.07; z-score, replicate B = -0.68; z-score, replicate C = -0.09
ETAA1 | mean z-score = 1.87; z-score, replicate A = 1.72; z-score, replicate B = 2.22; z-score, replicate C = 1.67
LOC390335 (retired record) | mean z-score = -0.7; z-score, replicate A = -0.92; z-score, replicate B = -0.85; z-score, replicate C = -0.32
REC114 | mean z-score = 0.39; z-score, replicate A = 0.6; z-score, replicate B = 0.47; z-score, replicate C = 0.11
TMEM69 | mean z-score = 0.37; z-score, replicate A = 0.35; z-score, replicate B = 0.37; z-score, replicate C = 0.39
FRS2 | mean z-score = -1.37; z-score, replicate A = -1.34; z-score, replicate B = -1.42; z-score, replicate C = -1.35
JUND | mean z-score = -0.58; z-score, replicate A = -0.32; z-score, replicate B = -0.79; z-score, replicate C = -0.64
LOC440341 (retired record) | mean z-score = -0.04; z-score, replicate A = -0.15; z-score, replicate B = 0.38; z-score, replicate C = -0.33
